# Biological target: T1, COVID-19-RBD-GST (SARS-CoV-2 (COVID-19 virus), wild type)
# T1 construct: also called dimeric RBD fused with a GST tag; COVID-19-RBD-GST-Alexa488 probe
# Assay: flow cytometry, variant on spheroplasts, 50 nM COVID-19 RBD-Alexa 488 antigen
row,Binder,binding result
1,VH variant JS-VH 9 (other) VH: QVQLQESGGGVVQPGESLRLSCAASGFTFGDYAMHWVRQPPGKGLEWVSLISGDGFFTHYADSVEGRFTVSRDNSKNSLYLQMNSLRAEDTAVYYCARDSFGGHLDLWGQGTLVTVSS,binds
2,VH variant JS-VH 19 (other) VH: QVQLQESGGGVVQPGESLRLSCAASGFTFEDYAMHWVRQPPGKGLEWVSLISGDGFFTHYADSVEGRFTVSRDNSKNSLYLQMNSLRAEDTAVYYCVRDSFGGHLDLWGQGTLVTVSS,binds
3,VH variant JS-VH 21 (other) VH: QVQLQESGGGVVQPGESLRLSCAASGFTFEDYAMHWVRQPPGKGLEWVSLISGDGFYTHYADSVEGRFTVSRDNSKNSLYLQMNSLRAEDTAVYYCARDSFGGHLDLWGQGTLVTVSS,binds

# Reference: US20240199725A1 (KOREA UNIVERSITY RESEARCH AND BUSINESS FOUNDATION, published 2024)
